Measured values from paper PMC7952905, “Bat and pangolin coronavirus spike glycoprotein structures provide insights into SARS-CoV-2 evolution” (2021).

Assays:
[1] = molecular target: PCoV_GX spike ectodomain (1-1205), 2P (pangolin coronavirus PCoV_GX)
[2] = molecular target: RaTG13 spike ectodomain (1-1209), 2P (bat coronavirus RaTG13)

Substance	stoichiometry N [1]	stoichiometry N [2]
PCoV_GX spike ectodomain (1-1205), 2P	3	
RaTG13 spike ectodomain (1-1209), 2P		3
